Test system: activated sludge
Test: Biodegradability test with activated sludge (modified MITI method, OECD Test Guideline 301C)
Conditions: 25° C., 4 weeks

SMILES: O=C([O-])CC(NCCNC(CC(=O)[O-])C(=O)O)C(=O)[O-].[Na+].[Na+].[Na+] (centres unmarked) [trisodium N,N′-ethylenediaminedisuccinate]
- proportion degraded in biodegradability test (modified MITI method OECD 301C, sample 100 mg/l, activated sludge 30 mg/l): ≥ 80%
- proportion degraded in biodegradability test (sample 30 mg/l, activated sludge 100 mg/l): ≥ 80%

Reference: patent US6900351B2, “Aminopolycarboxylates, process for producing the same and use thereof” (Tosoh Corporation, priority 2000, dated 2005)
